Paper PMC3476531, “Synergy of Peptide and Sugar in O-GlcNAcase Substrate Recognition” (Chemistry & Biology, 2012)

Target: CpOGA (Clostridium perfringens, UniProt Q0TR53)
Test: CpOGA glycopeptide hydrolysis, substrate competition assay with 4MU-GlcNAc reporter
Settings: read-out: Michaelis constant (KM) of glycopeptide substrate for CpOGA; competition with 4MU-GlcNAc reporter substrate; 37°C, 50 mM citrate-phosphate buffer pH 7.4, 0.1 mg/ml BSA; triplicate; ± error of curve-fit

For `CC(=O)N[C@H]1[C@H](OC[C@H](NC(=O)[C@H](Cc2c[nH]cn2)NC(=O)[C@H](C)NC(=O)[C@@H](NC(C)=O)C(C)C)C(=O)NCC(=O)N[C@@H](C)C(N)=O)O[C@H](CO)[C@@H](O)[C@@H]1O`, the Km was 40 µM.
